Results of unrelated studies side by side (data: NIAID ChemDB).

Common to all: tests in culture; agent: HIV-1; read-out: fold resistance

An empty or dashed field is not shown.

structure,strain,mutations,cells,method,value
C=C(C)[C@@H]1CC[C@]2(C(=O)NCCCCCCCC(=O)N[C@@H](CC(C)C)[C@@H](O)CC(=O)O)CC[C@]3(C)[C@H](CC[C@@H]4[C@@]5(C)CC[C@H](O)C(C)(C)[C@@H]5CC[C@]43C)[C@@H]12,LAI,GP41-Q39H,HeLa P4 + HeLa,syncytia,~1
Nc1nc(=O)n([C@H]2C=C[C@@H](CO)O2)cc1F,XM-Q151M,RT-A62V V75I F77C F116Y Q151M,PBMC,p24,15
Cc1cc(C#N)cc(C(=O)c2ccccc2OCC(=O)Nc2ccc(S(N)(=O)=O)cc2C)c1,-,RT-K103N,HeLa MAGI + HeLa,β-galactosidase,2
CCCc1cc(=O)oc2c3c(c4c(c12)OC(C)(C)CC4)O[C@H](C)[C@@H](C)C3=O,-,RT-Y188H,-,cytopathic effect / XTT,>68
Nc1nc2c(ncn2[C@H]2CO[C@@H](CO)O2)c(=O)[nH]1,-,RT-L74V,MT-2,cytopathic effect / XTT,2.5
CCN1C(=O)c2c(O)c(=O)c(C(=O)NCc3ccc(F)c(Cl)c3F)cn2[C@H]2CCOC[C@H]21,-,E92Q/N155H,MT-2,luminescence,2.3
CC(C)OC(=S)Nc1ccc(Cl)c(C(=O)OCC[Si](C)(C)C)c1,-,RT-E138K,CEM,syncytia,35
C=CCO/N=C/c1cc(NC(=S)c2ccoc2C)ccc1Cl,NL4-3,RT-V179D,CEM + CEM-SS,cytopathic effect / XTT,94.3
CCOC(=O)COc1cc(NC(=S)OC(C)C)ccc1Cl,-,RT-L100I,CEM,syncytia,12.8
Nc1nc(NC2CC2)c2ncn([C@H]3CO[C@@H](CO)O3)c2n1,HXB2(RT-V75I) Recombinant,RT-V75I,MT-2,RT activity,2
CCCOC(=S)Nc1ccc(Cl)c(C(=O)OC(C)C)c1,-,RT-V106A,CEM,syncytia,110
CCN1C(=O)c2c(O)c(=O)c(C(=O)NCc3ccc(F)c(Cl)c3F)cn2[C@H]2CCO[C@H]21,-,N155H/Q148R,MT-2,luminescence,2.2
Cc1ccnc(SC(F)(F)c2nc3ccccc3o2)n1,OC/100(RT-L100I,RT-L100I,-,-,5.67
C=CCOC(=S)Nc1ccc(Cl)c(C(=O)OC(C)C)c1,-,RT-Y181C,CEM,syncytia,92.3
Cc1occc1C(=S)Nc1ccc(Cl)c(C(=O)OCC2CC2)c1,CALO(RT-T139I),RT-T139I,CEM + CEM-SS,cytopathic effect / XTT,2
CC[C@H](C)OC(=S)Nc1ccc(Cl)c(C(=O)OC(C)C)c1,-,RT-V106A,CEM,syncytia,13.3
COc1ccc(-n2c(SCC(=O)Nc3ccc(S(N)(=O)=O)cc3Cl)nnc2C(F)(F)F)c2ccccc12,NL4-3,RT-Y188L,HeLa + HeLa-JC53,luciferase,35
CC(C)(C)OC(=O)c1cc(NC(=S)OC(C)(C)C)ccc1Cl,-,RT-L100I,CEM,syncytia,>15.4
CCN1C(=O)c2c(O)c(=O)c(C(=O)NCc3c(F)cc(F)cc3F)cn2[C@H]2COC[C@H]21,-,E92Q/N155H,MT-2,luminescence,2.3
CC[C@@H](C)OC(=S)Nc1ccc(Cl)c(C(=O)OC(C)C)c1,-,RT-Y181C,CEM,syncytia,29.8
N#Cc1cc(Cl)cc(Oc2c(Br)ccc(CC(=O)Nc3ccc(S(N)(=O)=O)cc3Cl)c2F)c1,-,V106A/F227C/M230L,MT-4,-,>308
Cc1ccc2c(-n3c(C)nnc3SCC(=O)Nc3ccccc3Br)ccc(C)c2c1,NL4-3,RT-Y188L,HeLa + HeLa-JC53,luciferase,300
CCOC(=O)c1cc(NC(=S)OC(C)C)ccc1SC,-,RT-E138K,CEM,syncytia,66.8
Nc1nc(NC2CC2)c2ncn([C@H]3C=C[C@@H](CO)C3)c2n1,XM-T69SSS,RT-T69SSS L210W T215Y,PBMC,p24,7.6
Cc1ccc(NC(=O)CSc2nnc(C)n2-c2cc(C)c(C)c3ccccc23)c(Cl)c1,NL4-3,RT-Y188L,HeLa + HeLa-JC53,luciferase,160
C/C=C/CSc1cc(NC(=S)c2ccsc2C)ccc1Cl,NL4-3,RT-V179D,CEM + CEM-SS,p24,9
CCCOC(=O)c1cc(NC(=S)OC(C)C)ccc1Cl,-,RT-Y181C,CEM,syncytia,180
Cc1ccc(-n2c(C)nnc2SCC(=O)Nc2ccc(C)cc2Cl)cc1,NL4-3,RT-K103N Y181C,HeLa + HeLa-JC53,luciferase,189
Cc1ccccc1OC(=O)c1cc(NC(=S)OC(C)C)ccc1Cl,-,RT-V106A,CEM,syncytia,≥25
CC(C)OC(=S)Nc1ccc(Cl)c(/C=N/OC(C)(C)C)c1,CALO(RT-T139I),RT-T139I,CEM + CEM-SS,cytopathic effect / XTT,4
C#CCOC(=O)c1cc(NC(=S)OC(C)C)ccc1Cl,-,RT-Y181C,CEM,syncytia,≥34.5
COc1ccnc2[nH]cc(C(=O)C(=O)N3CCN(C(=O)c4ccccc4)C[C@H]3C)c12,LAI(GP120-V68A M434I) Recombinant,GP120-V68A M434I,MT-2,RT activity,77.25
CCCCCCCCCCCCCCCCCCOCCOP(=O)(O)CO[C@H](CO)Cn1cnc2c(N)ncnc21,-,RT-K65R,MT-2,p24,7.5
CC(C)[C@H](NC(=O)OCc1ccccn1)C(=O)N[C@@H](Cc1ccccc1)[C@@H](O)C[C@H](Cc1ccccc1)NC(=O)OCc1cccnc1,NL4-3,PR-L10R M46I L63P 184V,MT-4,p24,1.875
Cc1occc1C(=S)Nc1ccc(Cl)c(/C=N/OC(C)(C)C)c1,NL4-3,RT-K103N,CEM + CEM-SS,cytopathic effect / XTT,60
CN(C)c1ccc(-n2c(SCC(=O)Nc3ccc(S(N)(=O)=O)cc3Cl)nnc2C(F)(F)F)c2ccccc12,NL4-3,RT-Y188L,HeLa + HeLa-JC53,luciferase,3.5
CCCCCCCCCCCCCCCCOCCCOP(=O)(O)CO[C@H](CO)Cn1cnc2c(N)ncnc21,-,RT-K103N,MT-2,p24,2.86
Cc1nnc(SCC(=O)Nc2ccccc2Br)n1-c1cccc2cccnc12,NL4-3,RT-Y188L,HeLa + HeLa-JC53,luciferase,600
C[C@@H]1CCO[C@H]2Cn3cc(C(=O)NCc4ccc(F)cc4F)c(=O)c(O)c3C(=O)N12,-,V75I,TZM-bl,luciferase / luminescence,0.5
CO/N=C/c1cc(NC(=S)OC(C)C)ccc1Cl,-,RT-V106A,CEM,syncytia,100
Cc1ccc(-n2c(C)nnc2SCC(=O)Nc2ccccc2Br)c2ccccc12,NL4-3,RT-Y188L,HeLa + HeLa-JC53,luciferase,115
CC(C)OC(=S)Nc1ccc(Cl)c(C(=O)OCc2ccccc2)c1,-,RT-Y181C,CEM,syncytia,15.7
Cc1occc1C(=S)Nc1ccc(Cl)c(C(=O)OC(C)C)c1,NL4-3,RT-K101E,CEM + CEM-SS,cytopathic effect / XTT,23.3
CC(C)OC(=S)Nc1ccc(Cl)c(C(=O)OC2(C)COC2)c1,-,RT-Y181C,CEM,syncytia,10
CC=CCOc1cc(NC(=S)c2ccoc2C)ccc1OC,NL4-3,RT-L100I,CEM + CEM-SS,cytopathic effect / XTT,20
CC(C)OC(=O)c1cc(NC(=S)OC(C)C)ccc1Cl,-,RT-L100I,CEM,syncytia,73.6
O=C(O[C@@H]1[C@H](OC(=O)c2ccccc2)[C@@H](CO)O[C@H]1n1cnc2c(N(C(=O)c3ccccc3)C(=O)c3ccccc3)ncnc21)c1ccccc1,NL4-3,G140S-Q184H,HeLaP4,β-galactosidase,0.99
FC(F)(Sc1ncccn1)c1nc2ccccc2o1,ddI-resistant,RT-L74V,-,-,>3.18
CCOC(=O)c1cc(NC(=S)OC(C)C)ccc1C,-,RT-E138K,CEM,syncytia,1290

The last 5 rows once more:

CC=CCOc1cc(NC(=S)c2ccoc2C)ccc1OC ; strain: NL4-3 ; mutations: RT-L100I ; cells: CEM + CEM-SS ; method: cytopathic effect / XTT ; value: 20
CC(C)OC(=O)c1cc(NC(=S)OC(C)C)ccc1Cl ; mutations: RT-L100I ; cells: CEM ; method: syncytia ; value: 73.6
O=C(O[C@@H]1[C@H](OC(=O)c2ccccc2)[C@@H](CO)O[C@H]1n1cnc2c(N(C(=O)c3ccccc3)C(=O)c3ccccc3)ncnc21)c1ccccc1 ; strain: NL4-3 ; mutations: G140S-Q184H ; cells: HeLaP4 ; method: β-galactosidase ; value: 0.99
FC(F)(Sc1ncccn1)c1nc2ccccc2o1 ; strain: ddI-resistant ; mutations: RT-L74V ; value: >3.18
CCOC(=O)c1cc(NC(=S)OC(C)C)ccc1C ; mutations: RT-E138K ; cells: CEM ; method: syncytia ; value: 1290

Neighbouring rows are from separate reports. Fold resistance: result on the changed form divided by that on wild type.